## Potato spindle tuber viroid, loop 15: variant abundance in plants

Region: loop 15 of PSTVd (intermediate strain), upper and lower strand joined, each 5' to 3', the first 7 letters being the upper strand, closing pairs included. Wild type: GGAAACCGCUACUAC. Varied positions (N): GGAAACCGNNNNNNC.

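Three N. benthamiana plants were inoculated with the whole mutant pool. Progeny were sequenced from the inoculated region (day 5), the margin of the inoculated leaf (day 10) and systemic leaves (day 12).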

Values are reads per thousand in the sample; higher means more abundant, 0 means not found. Each site shows the three plants. "Pool" is the share in the plasmid pool used as inoculum, on the same scale. The inoculated region was read from the minus strand, the other sites from the plus strand. With 43,870-66,106 reads a sample, very low values are single reads. Wild type was 33.9 per thousand in the pool and the most common sequence in every sample (inoculated region 202, 200, 159; leaf margin 724, 746, 710; systemic leaves 856, 883, 880). Sequences that differ at fixed positions probably stem from PCR or sequencing errors, and defective variants can be carried along by functional ones.

GGAAACCGGGCUACC (pool 0.144) read inoculated region 0.115 / 0.0482 / 0.0952; leaf margin 0.0162 / 0.0223 / 0; systemic leaves 0 / 0 / 0. GGAAACCGAAAAAGC (pool 0.208) read inoculated region 0.0655 / 0.0643 / 0.0762; leaf margin 0.0162 / 0 / 0; systemic leaves 0 / 0 / 0. GGAAACCGGGAUGUC (pool 0.336) gave inoculated region 0.0655 / 0.0482 / 0.114; leaf margin 0.0323 / 0 / 0.0200; systemic leaves 0.0161 / 0 / 0. GGAAACCGCCCUCGC (pool 0.208) read inoculated region 0.0983 / 0.0482 / 0.0952; leaf margin 0.0162 / 0.0223 / 0.0200; systemic leaves 0 / 0 / 0. GGAAACCGGUUAAUC (pool 0.208) gave inoculated region 0.197 / 0.273 / 0.0952; leaf margin 0 / 0 / 0.0200; systemic leaves 0.0161 / 0.0151 / 0. GGAAACCGUAGCCCC (pool 0.256) gave inoculated region 0.0491 / 0.0643 / 0.209; leaf margin 0 / 0.0223 / 0; systemic leaves 0 / 0 / 0.0228. With GGAAACCGUACGGAC (pool 0.256) the assay gave inoculated region 0.295 / 0.337 / 0.381; leaf margin 0.226 / 0.134 / 0.240; systemic leaves 0.0644 / 0 / 0.

For GGAAACCGGUUUCCC (pool 0.224) the result was inoculated region 0.131 / 0.112 / 0.0381; leaf margin 0 / 0 / 0; systemic leaves 0 / 0 / 0. For GGAAACCGGUAACGC (pool 0.336) the result was inoculated region 0.115 / 0.112 / 0.152; leaf margin 0.0162 / 0 / 0.0401; systemic leaves 0 / 0 / 0. With GGAAACCGUUAUCUC (pool 0.288) the assay gave inoculated region 0.426 / 0.321 / 0.248; leaf margin 0.162 / 0.0668 / 0.0801; systemic leaves 0.0161 / 0.106 / 0.0684. GGAAACCGUCUGCCC (pool 0.352) read inoculated region 0.115 / 0.0482 / 0.0571; leaf margin 0 / 0.0668 / 0.0200; systemic leaves 0 / 0 / 0. For GGAAACCGCAUGCGC (pool 0.176) the result was inoculated region 0.131 / 0.0482 / 0.0762; leaf margin 0 / 0 / 0; systemic leaves 0 / 0 / 0. GGAAACCGUUACCCC (pool 0.208) read inoculated region 0.131 / 0.0803 / 0.0762; leaf margin 0.0162 / 0 / 0.0200; systemic leaves 0.0161 / 0 / 0. GGAAACCGAUAAAUC (pool 0.336) gave inoculated region 0.409 / 0.418 / 0.324; leaf margin 0.0970 / 0.156 / 0.100; systemic leaves 0.0322 / 0 / 0.

GGAAACCGACGUCUC (pool 0.160) gave inoculated region 0.115 / 0.0643 / 0.171; leaf margin 0 / 0 / 0; systemic leaves 0 / 0 / 0. With GGAAACCGCGUUGAC (pool 0.224) the assay gave inoculated region 0.0655 / 0.0643 / 0.0190; leaf margin 0.0162 / 0.0223 / 0.0401; systemic leaves 0 / 0 / 0. With GGAAACCGUAUGUUC (pool 0.288) the assay gave inoculated region 0.311 / 0.225 / 0.305; leaf margin 0.0647 / 0.134 / 0.160; systemic leaves 0.0483 / 0.0454 / 0.137. GGAAACCGAAUCUUC (pool 0.320) read inoculated region 0.262 / 0.161 / 0.152; leaf margin 0 / 0.0223 / 0.0200; systemic leaves 0.0161 / 0 / 0. GGAAACCGGGAACAC (pool 0.160) read inoculated region 0.0983 / 0.0643 / 0.0381; leaf margin 0 / 0 / 0.0401; systemic leaves 0 / 0 / 0. With GGAAACCGCAGAUUC (pool 0.256) the assay gave inoculated region 0.229 / 0.305 / 0.267; leaf margin 0.0485 / 0.0891 / 0.120; systemic leaves 0.0483 / 0 / 0.0228. For GGAAACCGAGUCCCC (pool 0.208) the result was inoculated region 0.213 / 0.225 / 0.133; leaf margin 0 / 0 / 0.0200; systemic leaves 0 / 0 / 0.

For GGAAACCGUACGCUC (pool 0.240) the result was inoculated region 0.0819 / 0.0643 / 0.0190; leaf margin 0.0162 / 0 / 0.0200; systemic leaves 0 / 0 / 0. With GGAAACCGGAGGGAC (pool 0.208) the assay gave inoculated region 0.0983 / 0.0643 / 0.0952; leaf margin 0 / 0.0445 / 0; systemic leaves 0 / 0 / 0. GGAAACCGCCGGCGC (pool 0.272) gave inoculated region 0.180 / 0.0161 / 0.228; leaf margin 0 / 0.0223 / 0; systemic leaves 0 / 0.0151 / 0. With GGAAACCGCGAACCC (pool 0.224) the assay gave inoculated region 0.115 / 0.0643 / 0.133; leaf margin 0 / 0 / 0; systemic leaves 0 / 0 / 0. GGAAACCGCAGGCCC (pool 0.240) read inoculated region 0.0983 / 0.177 / 0.0571; leaf margin 0 / 0 / 0; systemic leaves 0 / 0 / 0. For GGAAACCGGACCCCC (pool 0.240) the result was inoculated region 0.115 / 0.0161 / 0.0762; leaf margin 0.0162 / 0 / 0; systemic leaves 0 / 0 / 0. With GGAAACCGUGAACCC (pool 0.176) the assay gave inoculated region 0.0983 / 0.0803 / 0.0762; leaf margin 0 / 0 / 0.0200; systemic leaves 0 / 0 / 0.

A selection of 2 entries from above:

| sequence | pool | inoculated region | leaf margin | systemic leaves |
|---|---|---|---|---|
| GGAAACCGCGUUGAC | 0.224 | 0.0655 / 0.0643 / 0.0190 | 0.0162 / 0.0223 / 0.0401 | 0 / 0 / 0 |
| GGAAACCGGGCUACC | 0.144 | 0.115 / 0.0482 / 0.0952 | 0.0162 / 0.0223 / 0 | 0 / 0 / 0 |

Source: Wu et al. 2024 (doi:10.1371/journal.ppat.1012142), supplementary data.